Reference: ChEMBL document CHEMBL1135687, “Metal-dependent inhibition of HIV-1 integrase” (J Med Chem, 2002)

System: Human immunodeficiency virus 1
Experiment: Cytotoxic concentration

## O=C(NNC(=O)c1ccccc1SSc1ccccc1C(=O)NNC(=O)c1ccccc1S)c1ccccc1S
  CC50: 34 µM

## O=C(NNC(=O)c1ccccc1S)c1ccccc1S [BIS(THIOSALICYL)HYDRAZIDE]
  CC50: 14.4 µM
